Experiments:
EBOV/Mak GP = EBOV/Mak GP (UniProt P87666); experiment: SPR
Ebola = Ebola (UniProt P87666); experiment: ELISA

Substance | Kd (EBOV/Mak GP) [nM] | EC50 (Ebola) [µg/mL]
13C6 | 8.35 | 0.0623
6D8 | 3.67 | 0.0882

— patent US20220387579A1
